Results of unrelated studies side by side (data: NIAID ChemDB).

Shared fields: tests in culture; agent: Herpes simplex virus 1; measure: inhibition

Conditions beyond the fields shown may differ between rows. An empty or dashed field is not shown. Inhibition is in % at the dose shown (toxicity tests: loss of growth or viability).

SMILES | dose | method | strain | cell line | value
O=c1[nH]c(=O)n([C@H]2C[C@H](O)[C@@H](CO)O2)cc1I | 8.4 µM | cytopathic effect | TK- | VERO | >25%
NC(=S)N/N=C\c1ncnc2nc[nH]c12 | 40 µM | plaque count | PH | VERO | 15%
O=Nc1c(O)n(-c2ccc(Br)cc2)c(=O)[nH]c1=O | 100 µg/mL | cytopathic effect | Leningrad/248/88 | VERO | 30%
COC(=O)[C@H]1[C@H](O)[C@@H](C)[C@@H](O)[C@](C)(O)/C=C(\C)C2=C3C(=C(C)C(=O)c4c(O)c(c(C)c(OC(C)=O)c43)NC(=O)/C(C)=C/C=C\[C@@H](C)C(O)[C@@H](C)[C@H]1O)OCO2 | 6.5 µM | plaque count | - | CV | 33.3%
Oc1cc(O)c2c(c1)O[C@H](c1cc(O)c(O)c(O)c1)[C@H](O)C2 | 200 µM | MTT | 17 syn + | VERO | 59%
NC(=S)N/N=C/c1cccnc1 | 40 µM | plaque count | PH | VERO | 5%
O=C(O)P(=O)(O)O | 500 µM | plaque count | V8663 | SIRC | >99.9%
Nn1c(Nc2ccccc2)nc2sc3c(c2c1=O)CCCC3 | 0.3 µg/mL | plaque count | - | VERO | 30%
CN1C(=O)C(=O)c2ccccc21 | 40 µM | plaque count | PH | VERO | 0%
O=C(O[C@@H]1Cc2c(O)cc(O)cc2O[C@@H]1c1ccc(O)c(O)c1)c1cc(O)c(O)c(O)c1 | 20 µM | MTT | 17 syn + | VERO | 81%
O=c1c2c3c(sc2nc(Nc2ccccc2)n1/N=C/c1ccc([N+](=O)[O-])cc1)CCCC3 | 0.3 µg/mL | plaque count | - | VERO | 0%
NC(=S)N/N=C/c1ccncc1 | 40 µM | plaque count | PH | VERO | 15%
O=C(CP(=O)(O)O)O[C@H]1C[C@H](n2cc(CCCl)c(=O)[nH]c2=O)O[C@@H]1CO | 242 µM | cytopathic effect | TK- | VERO | >25%
CC(C)(C)n1c(O)c(N=O)c(=O)[nH]c1=O | 100 µg/mL | cytopathic effect | Leningrad/248/88 | VERO | 50%
O=C(O[C@@H]1[C@@H](c2c(O)cc(O)c3c2O[C@H](c2ccc(O)c(O)c2)[C@H](OC(=O)c2cc(O)c(O)c(O)c2)C3)c2c(O)cc(O)cc2O[C@@H]1c1ccc(O)c(O)c1)c1cc(O)c(O)c(O)c1 | 20 µM | MTT | 17 syn + | VERO | 78%
Nn1c(Nc2ccc(Cl)cc2)nc2sc3c(c2c1=O)CCCC3 | 0.3 µg/mL | plaque count | - | VERO | 20%
Cc1ccccc1-n1c(O)c(N=O)c(=O)[nH]c1=S | 100 µg/mL | cytopathic effect | Leningrad/248/88 | VERO | 50%
COP(=O)(CC(=O)OC[C@H]1O[C@@H](n2cc(I)c(=O)[nH]c2=O)C[C@@H]1O)OC | 0.6 µM | cytopathic effect | BRAND | VERO | >25%
Cc1ccccc1-n1c(O)c(N=O)c(=O)[nH]c1=O | 100 µg/mL | cytopathic effect | Leningrad/248/88 | VERO | 35%
O=C(OCc1ccccc1)P(=O)(O)OC[C@H]1O[C@@H](n2cc(CCCl)c(=O)[nH]c2=O)C[C@@H]1O | 20.5 µM | cytopathic effect | TK- | VERO | >25%
Cn1c(O)c(N=NC(N)=S)c2ccccc21 | 40 µM | plaque count | PH | VERO | 99%